Experimental data taken from article PMC8420576 (The EMBO Journal, 2021).

Target: SARS-CoV-2 Spike protein expressed in transfected HeLa cells (SARS-CoV-2, reference (Wuhan-Hu-1) …, UniProt P0DTC2)
Assay: immunostaining of cells or tissue
Details: one partner purified

B1: VHH antibody Re5D06 (VHH)
VHH: QVQLVESGGGLVQPGGSLRLSCAASGITLDYYAIGWFRQAPGKEREGVSRIRSSDGSTNYADSVKGRFTMSRDNAKNTVYLQMNSLKPEDTAVYYCAYGPLTKYGSSWYWPYEYDYWGQGTQVTVSS
notes: also called super-neutralizing VHH Re5D06
- binding result: binds
